Experimental findings from publication PMC12316777 are described below.

This series addresses nsp13 (helicase) (SARS-CoV-2) (UniProt P0DTD1). Put plainly: EMSA. As to conditions: recombinant protein, protein details: His6, removed with thrombin.

Construct, isoform or probe ends are uncertain for at least one entry. At least one verdict rests on a figure or table, not on a statement of the authors.

Consider “TTTTTTTTTTTTTTTTTTTTCGAGCACCGCTGCGGCTGCACC / GGTGCAGCCGCAGCGGTGCTCG [nsp13 dsDNA substrate (FL-Cy3/RL)]”, for which the binding result is listed as “binds”. The binding result (no Au(I), 2 uM nsp13, 100 nM dsDNA) was “binds”.
